Paper PMC7535981, “RovC - a novel type of hexameric transcriptional activator promoting type VI secretion gene expression” (PLoS Pathogens, 2020)
Numbering of substitutions follows the chain as printed. Numbers in names are those of the source. Like-named read-outs stand apart in the source and are kept apart here.

B1: RovC (regulator of virulence interconnected with the Csr system), wildtype (natural protein)
chain: MRKKLYNDFAWECLRRNPQYISDWELFMKNTLTNGGGIPDDSELIQSELDLNAEKKWGVMKYIDPYNSDPTNVFWSLKLSNRSVRVKLSNTGNVKGGYTWGDMSNLPGVKHQRLLMHDNTLCVKIFSQNGYFQLFIESADALKDDSNLYIYIPLNLESDVFAKNIELLQSIVNHKIEVECKEEQYLGLLKTIDDRKQGFSHRDIASEIFGKELVKNEWSADSWVRAKIRYRIKKANALINYGYLNFL
B2: RovC S219E/A220E mutant (natural protein)
chain: B1 chain with S219E, A220E
B3: RovC R202E mutant (natural protein)
chain: B1 chain with R202E
B4: RovC R225E mutant (natural protein)
chain: B1 chain with R225E

How the values were obtained:
[1] = biological target: the molecule itself
[2] = biological target: the molecule itself; test: SEC-MALS

Protein | stoichiometry N [1] | stoichiometry N [2]
B1 | 6 | –
B2 | – | 6
B3 | – | 6
B4 | – | 6
